Measured values from several laboratories, pooled; numbers as filed in NIAID ChemDB.

All rows: whole-cell or culture tests; agent: Hepatitis B virus; read by: PCR; endpoint: EC50

Two numbers with a dash give a range or band. Rows are shuffled and stem from different studies. ECn is the concentration giving n% inhibition of infection, replication or growth. An empty or dashed field is not shown.

SMILES | strain | cell line | conditions | result
C/C=C(/C)C(=O)Oc1c2c(cc3c1-c1c(cc(OC)c(OC)c1OC)C[C@](C)(O)[C@@H](C)C3)OCO2 | - | HepG2.2.15 | - | 32 µg/mL
C[C@@H]1Cc2nn3c(c2CN1C(=O)c1ccc(Cl)c(C#N)c1)C(=O)N([C@@H](C)c1cccc(C(F)(F)F)c1)CC3 | - | HepG2.117 | - | 0.044 µM
C[C@H](NC(=O)C1C2CN(C(=O)c3ccc(Br)c(Cl)c3)CCN2C(=O)N1c1ccc(OC2CC2)cc1)c1ccccc1 | - | HepG2.117 | - | 0.1–0.5 µM
C/C=C(/C)C(=O)Oc1c(OC)c(OC)cc2c1-c1c(cc3c(c1OC)OCO3)C[C@H](C)[C@@](C)(O)C2 | - | HepG2.2.15 | - | 12.03 µg/mL
Cn1nc2cc(NS(=O)(=O)Cc3ccccc3)ccc2c1C(=O)Nc1ccc(F)c(Cl)c1 | - | HepAD38 | - | 100–1000 µM
CCNC(=O)C(=O)N1CCC(NS(=O)(=O)c2cn(C)c(C(=O)Nc3cccc(C(F)(F)F)c3)c2F)CC1 | - | HepAD38 cells | - | <0.1 µM
CC1O[C@@H]2C[C@H]3[C@H]4C5=C(C(=O)OCC5=C[C@]13C1=C2C(=O)OCC1)[C@@H](O)O[C@@H]4c1cccc2c1CCOC2=O | - | - | - | 2.12 µM
C=C1[C@@H](n2cnc3c(N)ncnc32)C[C@H](O)[C@]1(CO)CF | - | HepG2.117 | - | >15.5 µM
COc1ccc([C@H](C)NC(=O)c2c3n(c(=O)n2-c2ccc(OC)cc2)CCN(C(=O)c2ccc(Br)c(Cl)c2)C3)cc1 | - | HepG2.117 | - | <0.1 µM
CCNC(=O)C(=O)N1CCC(NS(=O)(=O)c2cn(CC)c(C(=O)Nc3cc(F)c(F)c(F)c3)c2F)C(F)(F)C1 | - | HepAD38 cells | - | <0.1 µM
COc1ccc(-n2c(C(=O)NCc3ccc(Cl)cc3)c3n(c2=O)CCN(C(=O)c2ccc(Br)c(Cl)c2)C3)cc1 | - | HepG2.117 | - | 0.1–0.5 µM
Cn1nc2cc(NS(=O)(=O)N3CC(O)C3)ccc2c1C(=O)Nc1ccc(F)c(Cl)c1 | - | HepAD38 | - | 100–1000 µM
Nc1ccn([C@@H]2CS[C@H](CO)O2)c(=O)n1 | - | HepG2.2.15 | - | 1 µM
C=C[C@H](C)Nc1nc2c(c(=O)n1-c1ccc(C(=O)N(C)C(=O)O[C@H](C)OC(=O)[C@@H](N)C(C)C)cc1)C[C@@H](C)N(C(=O)c1ccc(Br)c(C(F)(F)F)c1)C2 | Genotype D | HepG2.117 | - | <0.05 µM
NC(=O)COc1ccc(-n2c(C(=O)NCc3ccccc3)c3n(c2=O)CCN(C(=O)c2ccc(Br)c(Cl)c2)C3)cc1 | - | HepG2.117 | - | 0.5–5 µM
CCNC(=O)C(=O)N1CCC(NS(=O)(=O)c2c(Cl)c(C(=O)Nc3cc(F)c(F)c(F)c3)n3c2CCC3)CC1 | - | HepAD38 cells | - | <0.1 µM
Cn1cc(NS(=O)(=O)c2ccc3c(C(=O)Nc4ccc(F)c(Cl)c4)n(C)nc3c2)cn1 | - | HepAD38 | - | 100–1000 µM
O=C(c1ccc(Cl)c(Cl)c1)N1CCc2c(n3ncc(Cc4ccccc4)c3n(-c3ccccc3)c2=O)C1 | - | HepG2.117 | 3 d | <0.1 µM
O=C(NCc1cnc(C(F)(F)F)s1)c1ccc2c(c1)NC(=O)c1ccccc1S2(=O)=O | Genotype D | - | - | 0.146 µM
C=C[C@H](C)Nc1nc2c(c(=O)n1-c1ccc(C(=O)N(C)C(=O)O[C@@H](C)OC(=O)[C@@H](N)C(C)C)cc1)C[C@@H](C)N(C(=O)c1ccc(Br)c(C(F)(F)F)c1)C2 | Genotype D | HepG2.117 | - | <0.05 µM
COc1cc2c(c(OC)c1OC)-c1c(cc3c(c1OC)OCO3)C[C@H](C)[C@H](C)[C@@H]2OC | - | HepG2.2.15 | - | 5.49 µg/mL
Cn1ccc(S(=O)(=O)Nc2ccc3c(C(=O)Nc4ccc(F)c(Cl)c4)n(C)nc3c2)n1 | - | HepAD38 | - | <100 µM
O=C(c1ccc(Br)c(F)c1)N1CCc2c(n3ncc(Cc4ccccc4)c3n(-c3ccccc3)c2=O)C1 | - | HepG2.117 | 3 d | 0.1–0.5 µM
O=C(NCc1ccc(OC2COC2)cc1F)c1c2n(c(=O)n1-c1ccc(OC3CC3)cc1)CCN(C(=O)c1ccc(Br)c(Cl)c1)C2 | - | HepG2.117 | - | 0.1–0.5 µM
COc1ccc(Cn2c(=O)c3c(n4ncc(Cc5ccccc5)c24)CN(C(=O)c2ccc(Cl)c(Cl)c2)CC3)cc1 | - | HepG2.117 | 3 d | 0.5–5 µM
COc1ccc(-n2c(-c3ccccc3)nc3c(c2=O)C[C@@H](C)N(C(=O)c2ccc(Br)c(C(F)(F)F)c2)C3)cc1 | - | HepG2.117 | - | >0.5 µM
C[C@@]12C(=O)NC(=O)[C@]1(C)C1CCC2O1 | - | HepG2.2.15 | - | 0.002 µM
C[C@H](NC(=O)c1c2n(c(=O)n1-c1ccc(OCC(F)(F)F)cc1)CCN(C(=O)c1ccc(Br)c(Cl)c1)C2)c1ccc(OCC#N)cc1F | - | HepG2.117 | - | 0.1–0.5 µM
C[C@@H]1Cc2nn3c(c2CN1C(=O)c1ccc(Cl)c(C#N)c1)C(=O)N([C@@H](C)c1ccc(OC(F)(F)F)cc1)CC3 | - | HepG2.117 | - | 0.077 µM
CC(C)NC(=O)c1ccc(-n2c(=O)c3c(n4ncc(Cc5ccccc5)c24)CN(C(=O)c2ccc(Br)c(C#N)c2)CC3)cc1 | - | HepG2.117 | 3 d | 0.5–5 µM
CNC(=O)c1ccc(-n2c(-n3cc(CC(C)C)cn3)nc3c(c2=O)C[C@@H](C)N(C(=O)c2ccc(Br)c(C(F)(F)F)c2)C3)cc1 | - | HepG2.117 | - | >0.05 µM
C=C[C@H](C)Nc1nc2c(c(=O)n1-c1ccc(C(=O)N(C)C(=O)O[C@H](OC(=O)[C@@H](N)C(C)C)C(C)C)cc1)C[C@@H](C)N(C(=O)c1ccc(Br)c(C(F)(F)F)c1)C2 | Genotype D | HepG2.117 | - | <0.05 µM
Nc1ccn([C@@H]2CS[C@H](CO)O2)c(=O)n1 | Genotype D | HepG2 2.2.15 | - | 0.02 µg/mL
C[C@H]1Cn2c(c(C(=O)NCc3ccccc3-c3ncccn3)n(-c3ccc(OC4CC4)cc3)c2=O)CN1C(=O)c1ccc(Br)c(C#N)c1 | - | HepG2.117 | - | <0.1 µM
CC1O[C@H]2[C@@H]3C4=C(C(=O)OCC4=C[C@@]45C6=C(C(=O)OCC6)[C@@H](C[C@@H]34)OC5C)[C@H]3O[C@H](O)[C@@H]1C1=CCOC(=O)[C@@]132 | - | - | - | 5.34 µM
CN(C)CCOc1ccnc(-n2cc(S(=O)(=O)Nc3ccc4c(C(=O)Nc5ccc(F)c(Cl)c5)n(C)nc4c3)cn2)c1 | - | HepAD38 | - | <100 µM
CNS(=O)(=O)N1CC[C@@H](NS(=O)(=O)c2cn(C)c(C(=O)Nc3ccc(F)c(C#N)c3)c2F)C1 | - | HepAD38 cells | - | <0.1 µM
Cn1nccc1S(=O)(=O)Nc1ccc2c(C(=O)Nc3ccc(F)c(Cl)c3)n(C)nc2c1 | - | HepAD38 | - | 100–1000 µM
CC(C)CC(=O)Nc1cnn2c3c(c(=O)n(-c4ccccc4)c12)CCN(C(=O)c1ccc(Cl)c(Cl)c1)C3 | - | HepG2.117 | 3 d | >5 µM
C[C@@H]1Cc2nn3c(c2CN1C(=O)c1ccc(Cl)c(C#N)c1)C(=O)N([C@@H](C)c1ccc(C(F)(F)F)cc1)CC3 | - | HepG2.117 | - | 0.31 µM
Cn1nc2cc(NS(=O)(=O)c3ccn(-c4ccccn4)n3)ccc2c1C(=O)Nc1ccc(F)c(Cl)c1 | - | HepAD38 | - | 100–1000 µM

Repeating the first 5 entries:

SMILES | strain | cell line | conditions | result
C/C=C(/C)C(=O)Oc1c2c(cc3c1-c1c(cc(OC)c(OC)c1OC)C[C@](C)(O)[C@@H](C)C3)OCO2 | - | HepG2.2.15 | - | 32 µg/mL
C[C@@H]1Cc2nn3c(c2CN1C(=O)c1ccc(Cl)c(C#N)c1)C(=O)N([C@@H](C)c1cccc(C(F)(F)F)c1)CC3 | - | HepG2.117 | - | 0.044 µM
C[C@H](NC(=O)C1C2CN(C(=O)c3ccc(Br)c(Cl)c3)CCN2C(=O)N1c1ccc(OC2CC2)cc1)c1ccccc1 | - | HepG2.117 | - | 0.1–0.5 µM
C/C=C(/C)C(=O)Oc1c(OC)c(OC)cc2c1-c1c(cc3c(c1OC)OCO3)C[C@H](C)[C@@](C)(O)C2 | - | HepG2.2.15 | - | 12.03 µg/mL
Cn1nc2cc(NS(=O)(=O)Cc3ccccc3)ccc2c1C(=O)Nc1ccc(F)c(Cl)c1 | - | HepAD38 | - | 100–1000 µM